The record followed here is ChEMBL document CHEMBL4425082, “Antimalarial Chemotherapy: Natural Product Inspired Development of Preclinical and Clinical Candidates with Diverse Mechanisms of Action” (J Med Chem, 2016).

By pIC50 is commonly meant the IC50 on a negative log10 scale, so that one unit is a factor of ten.

Each structure is given as a SMILES string. pIC50: −log10 of the molar value.

This assay deals with Plasmodium falciparum. Kind of assay: Antimalarial activity against chloroquine-resistant Plasmodium falciparum K1 after 24 hrs in presence of hypoxanthine.

Take `C1CCC2(CC1)OOC1(CCCCC1)OO2`: the pIC50 is 7.60.
